From US20230357367A1 (GENERATE BIOMEDICINES, published 2023)

B1: Reference Antibody (antibody, V domains shown)
VH: EVQLVESGAEVKKPGESLKISCKGSGYTFTRYWIGWVRQMPGKGLEWMGIIYPGDSDTRYSPSFQGHVTISADKSISTAYLQWNSLKASDTAMYYCARLPQYCSNGVCQRWFDPWGQGTLVTVSS
VL: EIVLTQSPSSVSASVGDRVTITCRASQGISSWLAWYQQKPGKAPKLLIYAASSLQSGVPSRFSGSGSGTDFTLTISSLQPEDFATYYCQQGNSFPYTFGQGTNLEIK
B2: Reference Antibody Fab (Fab, V domains shown)
VH: B1 VH
VL: B1 VL

Tests used:
[1] = target: T1, SARS-CoV-2 BA.2+P1162L spike trimer (recombinant, in-house production) (SARS-CoV-2); test: DELFIA, IgG titrated on coated spike trimer
[2] = target: T2, SARS-CoV-2 BA.2+P1162S spike trimer (recombinant, in-house production) (SARS-CoV-2); test: DELFIA, IgG titrated on coated spike trimer
[3] = target: T1, SARS-CoV-2 BA.2+P1162L spike trimer …; test: SPR, Fab over anti-His-captured trimer, 37 C
[4] = target: T2, SARS-CoV-2 BA.2+P1162S spike trimer …; test: SPR, Fab over anti-His-captured trimer, 37 C
[5] = target: T1, SARS-CoV-2 BA.2+P1162L spike trimer …; test: SPR, Fab over anti-His-captured trimer, 25 C
[6] = target: T2, SARS-CoV-2 BA.2+P1162S spike trimer …; test: SPR, Fab over anti-His-captured trimer, 25 C

Row | Binder | EC50 [1] [µg/mL] | EC50 [2] [µg/mL] | Kd [3] [nM] | Kd [4] [nM] | Kd [5] [nM] | Kd [6] [nM]
1 | B1 | 0.067 | 0.059 | – | – | – | –
2 | B2 | – | – | 201 | 150 | 113 | 78
